{"source": "paper PMC9865707", "about": "“Structural Insights of the DciA Helicase Loader in Its Relationship with DNA”", "key": {"VcDciA (Vibrio cholerae)": {"test_system": "VcDciA (Vibrio cholerae)", "assay": "BLI", "conditions": "1 mM ATP, BLI: 50 mM Hepes pH 7.0, 150 mM NaCl, 0.1% Tween, temperature not stated, recombinant protein, protein details: N-terminal 6His"}, "[1]": {"test_system": "VcDciA[1-111] (Vibrio cholerae)", "assay": "NMR", "conditions": "NMR: 20 mM phosphate pH 5.6, 50 mM NaCl, 303 K (also 293 K), 26 uM protein, recombinant protein"}, "[2]": {"conditions": "affinity similar to ssDNA, label: 5' biotin on strand 1"}, "[3]": {"conditions": "shifts at R2, R5, K26, fast exchange"}}, "note": "For at least one entry, the source does not settle the construct or the ends of the probe."}
{"sequence": "AAGCGTGGTGAAACCTACCTCTGATTCGAAACCTTCACTTTACGTGGTCTGGCGTGGTGAATGTTCGTCGGCGTGCTCGA / CCAGGAATACGGCAAGTTGGAGGCCGGGCTGGATGGAGACTAAGCTTTGGAAGTGAAGGTTTCGAATCAGAGGTAGGTTTCACCACGC [foDNA oso23/oso18]", "values": [{"measurement": "binding result", "setting": "VcDciA (Vibrio cholerae); [2]", "result": "binds"}]}
{"sequence": "AAGCGTGGTGAAACCTACCTCTGATTCGAAACCTTCACTTTACGTGGTCTGGCGTGGTGAATGTTCGTCGGCGTGCTCGA / TCGAGCACGCCGACGAACATTCACCACGCCAGACCACGTAAAGTGAAGGTTTCGAATCAGAGGTAGGTTTCACCACGC [dsDNA oso23/oso24]", "values": [{"measurement": "binding result", "setting": "VcDciA (Vibrio cholerae); [2]", "result": "binds"}]}
{"sequence": "AAGCGTGGTGAAACCTACCTCTGATTCGAAACCTTCACTTTACGTGGTCTGGCGTGGTGAATGTTCGTCGGCGTGCTCGA [ssDNA oso23]", "values": [{"measurement": "binding result", "setting": "VcDciA (Vibrio cholerae); 0.1-1 uM protein, not 1:1 binding, label: 5' biotin, single-stranded DNA", "result": "binds"}]}
{"sequence": "GCTGTACCGACTAGCAAT (double strand) [dsDNA NMR]", "values": [{"measurement": "binding result", "setting": "[1]; [3]", "result": "binds"}]}
{"sequence": "GCTGTACCGACTAGCAAT [ssDNA NMR]", "values": [{"measurement": "binding result", "setting": "[1]; shifts at R2, R5, K26, slightly less impact than other DNAs, single-stranded DNA", "result": "binds"}]}
{"sequence": "GCTGTACCGTTTTTTTTT / TTTTTTTTTCGGTACAGC [foDNA NMR]", "values": [{"measurement": "binding result", "setting": "[1]; [3]", "result": "binds"}]}
{"sequence": "TTTTTTTTTCGGTACAGC / GCTGTACCG [5'ext DNA NMR]", "values": [{"measurement": "binding result", "setting": "[1]; [3]", "result": "binds"}]}
